The source of these data is patent US7423058B2, “Inhibitors of hepatitis C virus NS3 protease” (Schering Corporation, priority 2004, dated 2008).

The chains behind the UniProt entries cited, without tags or fusion partners. Residues count along the entry.
UniProt P27958, 1027-1657 limits assumed: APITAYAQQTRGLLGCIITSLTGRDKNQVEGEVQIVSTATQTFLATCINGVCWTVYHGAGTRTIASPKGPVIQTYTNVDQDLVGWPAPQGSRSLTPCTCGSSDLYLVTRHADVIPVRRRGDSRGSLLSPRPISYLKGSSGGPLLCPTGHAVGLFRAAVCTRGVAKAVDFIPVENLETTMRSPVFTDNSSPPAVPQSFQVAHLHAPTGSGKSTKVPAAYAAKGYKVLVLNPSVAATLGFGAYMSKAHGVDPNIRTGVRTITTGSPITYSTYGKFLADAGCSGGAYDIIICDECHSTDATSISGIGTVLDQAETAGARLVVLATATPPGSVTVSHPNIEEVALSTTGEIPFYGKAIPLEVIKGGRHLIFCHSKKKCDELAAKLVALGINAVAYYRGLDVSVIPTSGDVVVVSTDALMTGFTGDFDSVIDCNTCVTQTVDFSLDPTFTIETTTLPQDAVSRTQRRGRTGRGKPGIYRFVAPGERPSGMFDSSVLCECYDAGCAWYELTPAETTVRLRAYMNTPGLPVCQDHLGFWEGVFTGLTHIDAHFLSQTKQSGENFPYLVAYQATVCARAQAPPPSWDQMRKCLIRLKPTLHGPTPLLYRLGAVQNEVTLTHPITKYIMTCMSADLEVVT
UniProt P27958, 1658-1711 partner limits assumed: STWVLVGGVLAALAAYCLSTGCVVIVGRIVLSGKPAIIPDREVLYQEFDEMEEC

The target in the assay is Recombinant heterodimeric HCV NS3/NS4A protease (strain 1a) (Hepatitis C virus genotype 1a, UniProt P27958). The assay can be described thus: Spectrophotometric assay for HCV protease inhibitory activity (chromogenic ester substrates). The note with it: read-out: Ki* Range; Table 4: Carboxylic Acids. The source says:
The present invention relates to novel HCV protease inhibitors. This utility can be manifested in their ability to inhibit the HCV NS2/NS4a serine protease.
Assay for HCV Protease Inhibitory Activity:
Spectrophotometric Assay: Spectrophotometric assay for the HCV serine protease can be performed on the inventive compounds by following the procedure described by R. Zhang et al, Analytical Biochemistry, 270 (1999) 268-275, the disclosure of which is incorporated herein by reference. The assay based on the proteolysis of chromogenic ester substrates is suitable for the continuous monitoring of HCV NS3 protease activity. […]
Materials: Chemical reagents for assay related buffers are obtained from Sigma Chemical Company (St. Louis, Mo.). […] A Spectramax Plus microtiter plate reader with monochrometer is obtained from Molecular Devices (Sunnyvale, Calif.).
Enzyme Preparation: Recombinant heterodimeric HCV NS3/NS4A protease (strain 1a) is prepared by using the procedures published previously (D. L. Sali et al, Biochemistry, 37 (1998) 3392-3401). Protein concentrations are determined by the Biorad dye method using recombinant HCV protease standards previously quantified by amino acid analysis. […]

Each structure is given as a SMILES string. The match of structure and compound is tentative. A value given as a limit tells only on which side of the number the result lay.

The term Ki denotes the dissociation constant of the complex between target and ligand, obtained from inhibition or displacement. Turning to `CC(C)(C)[C@H](NC(=O)NC1(C(=O)O)CCCCC1)C(=O)N1C[C@H]2[C@@H]([C@H]1C(=O)NC(CC1CC1)C(=O)C(N)=O)C2(C)C` (stereo partly shown), the Ki was below 75 nM.
